The subject of this data set is lung DC subsets and alveolar macrophages. Kind of data set: Uptake of FITC-conjugated CDG by lung cells after intranasal administration (flow cytometry). The note with it: i.n. It counts as in vivo, mice.

In the case of 2′-Fluo-AHC-CDG [FITC-conjugated CDG], the “CDG-FITC uptake by lung moDCs” value (FITC+ lung cells after 5 hrs) is “no CDG-FITC”. For the setting “in vivo”, the “Fluorescent CDG uptake by alveolar macrophages (CD11c+MHC IIint)” value was “took up most of the fluorescent CDG”.

(Values after US12569557B2, “Targeting moDC to enhance vaccine efficacy on mucosal surface” (UNIVERSITY OF FLORIDA RESEARCH FOUNDATION, INCORPORATED, priority 2018, dated 2026).)
